Measured values from several laboratories, pooled; numbers as filed in NIAID ChemDB.

All rows: growth or infection tests; organism: Mycobacterium avium

A number after MIC or MFC names an inhibition level or a share of isolates. Rows are shuffled and stem from different studies. Blank or dashed fields: not listed here. ECn: concentration that inhibits the pathogen or its effect by n%.

| structure | cell line | conditions | method | strain | read-out | value |
|---|---|---|---|---|---|---|
| C=CCS/C(N)=N/NC(=O)c1ccc(OC)cc1 | - | - | - | ATCC 19421 | MIC | >100 µg/mL |
| Cc1nc2scc(-c3ccco3)c2c(=O)n1NC(=O)c1cccs1 | - | - | - | CNCTC MY330/88 | MIC | 121 µM |
| O=C(Nc1ccccc1CN1CCOCC1)c1ccc(Cl)cc1 | - | - | - | 103317 | MIC | >16 µg/mL |
| Cc1nc2scc(-c3ccco3)c2c(=O)n1/N=C/c1ccc(F)cc1F | - | - | - | CNCTC MY330/88 | MIC | 4 µM |
| O=c1oc2ccc(F)cc2c(=S)n1-c1ccc(Cl)cc1 | - | 21 d | - | MY330/88 | MIC | 8 µM |
| O=C(Nc1cccc(CN2CCOCC2)c1)c1ccc(Cl)cc1 | - | - | - | 103317 | MIC | >16 µg/mL |
| CN[C@@H]1[C@H](O[C@H]2[C@H](O[C@H]3[C@H](O)[C@@H](O)[C@H](N=C(N)N)[C@@H](O)[C@@H]3N=C(N)N)O[C@@H](C)[C@]2(O)C=O)O[C@@H](CO)[C@H](O)[C@H]1O | - | - | - | 299 | MIC | 4 µg/mL |
| O=C(Nc1ccc(Br)cc1)c1ccccc1O | - | - | - | CNCTC MY330/88 | MIC | 31 µM |
| O=C(Nc1ccc(F)cc1)c1cc(Cl)ccc1OS(=O)(=O)c1ccccc1 | - | 14 d | - | 330/88 | MIC | 16 µM |
| C=CCS/C(N)=N/NC(=O)c1cc(OC)c(OC)c(OC)c1 | - | - | - | ATCC 19421 | MIC | >100 µg/mL |
| O=C(Nc1cccc(F)c1)c1cc(F)ccc1O | - | - | - | CNCTC MY330/88 | MIC | 31 µM |
| CS/C(N)=N/NC(=O)c1ccc(F)cc1 | - | - | - | ATCC 19421 | MIC | >100 µg/mL |
| CC[C@H]1OC(=O)[C@H](C)[C@@H](O[C@H]2C[C@@](C)(OC)[C@@H](O)[C@H](C)O2)[C@H](C)[C@@H](O[C@@H]2O[C@H](C)C[C@H](N(C)C)[C@H]2O)[C@](C)(OC)C[C@@H](C)C(=O)[C@H](C)[C@@H](O)[C@]1(C)O | - | - | - | 15 isolates (HIV+) | EC50 | 5 µg/mL |
| CC(=O)NC[C@H]1CN(c2ccc(N3CCN(c4ccc([N+](=O)[O-])s4)CC3)c(F)c2)C(=O)O1 | - | - | - | ATCC49601 | MIC | <0.125 µg/mL |
| Cc1ccc(/C=N/n2c(C)nc3scc(-c4ccco4)c3c2=O)cc1 | - | - | - | CNCTC MY330/88 | MIC | 57 µM |
| O=C(Nc1ccccc1Cn1ccnc1)c1ccc(-c2ccccc2)cc1 | - | - | - | 103317 | MIC | >16 µg/mL |
| COc1ccc(-n2c(=O)oc3ccccc3c2=O)cc1 | - | - | - | CNCTC MY330/88 | MIC | 31 µM |
| CN1CCN(Cc2ccc(NC(=O)c3ccc(-c4ccccc4)cc3)cc2)CC1 | - | - | - | 103317 | MIC | >16 µg/mL |
| O=C(Nc1ccc(Br)cc1)c1cc(F)ccc1O | - | - | - | CNCTC MY330/88 | MIC | 8 µM |
| C[C@H]1COc2c(N3CCN(C)CC3)c(F)cc3c(=O)c(C(=O)O)cn1c23 | - | - | - | 101 | MIC | 8 µg/mL |
| O=C(Nc1cncs1)c1ccc(Cl)cc1O | - | - | - | MY330/88 | MIC | 250 µM |
| N/C(=N\N=C\c1ccccc1)c1ccncc1 | - | - | - | Isoniazid/rifampicin/ofloxacin-resistant | MIC | 128 µg/mL |
| O=C(Nc1cnccn1)c1ccccc1O | - | - | - | MY330/88 | MIC | 125 µM |
| CN1CCN(Cc2cccc(NC(=O)/C=C/c3ccccc3)c2)CC1 | - | - | - | 103317 | MIC | 8 µg/mL |
| COc1cc(C(=O)N/N=C(\N)SCc2cccc(Cl)c2)cc(OC)c1OC | - | - | - | ATCC 19421 | MIC | >100 µg/mL |
| O=C(Nc1cccc(Cn2ccnc2)c1)c1ccc(-c2ccccc2)cc1 | - | - | - | 103317 | MIC | >16 µg/mL |
| C=CCS/C(N)=N/NC(=O)c1ccccc1 | - | - | - | ATCC 19421 | MIC | >100 µg/mL |
| CCN(CC)CCOc1ccc(NC(=S)Nc2ccc(OCC(C)C)cc2)cc1 | - | - | - | 299 | MIC | 62.5 µg/mL |
| O=C(Nc1cccc([N+](=O)[O-])c1)c1cc(Br)ccc1O | - | - | - | CNCTC MY330/88 | MIC | 31 µM |
| NC(=S)NNC(=O)c1ccc(Cl)cc1 | - | - | - | ATCC 19421 | MIC | >100 µg/mL |
| O=C(Nc1cccc(F)c1)c1cc(Br)ccc1O | - | - | - | CNCTC MY330/88 | MIC | 31 µM |
| O=c1[nH]c(=S)c(CO)cn1C1OC(CO)C(O)C1O | - | - | resazurin | ATCC 25291 | MIC58 | 50 µg/mL |
| CN(C)c1ccc(NC(=O)c2cc([N+](=O)[O-])ccc2O)cc1 | - | - | - | CNCTC MY330/88 | MIC | 1000 µM |
| O=C(Nc1ccc(Cn2ccnc2)cc1)c1ccc(-c2ccccc2)cc1 | - | - | - | 103317 | MIC | >16 µg/mL |
| O=C(Nc1ccc(F)cc1)c1cc(Br)ccc1O | - | - | - | CNCTC MY330/88 | MIC | 31 µM |
| O=C(Oc1cc(Cl)ccc1C(=O)Nc1ccc(Br)cc1)c1cnccn1 | - | 21 d | - | 330/88 | MIC | 4 µM |
| O=C(Nc1ccc(Cl)c(Cl)c1)c1cc([N+](=O)[O-])ccc1O | - | - | - | CNCTC MY330/88 | MIC | 31 µM |
| O=C(Nc1ccccc1)c1cc(Cl)ccc1O | - | - | - | CNCTC MY330/88 | MIC | 31 µM |
| Cc1ccc(C(=O)Nn2c(C)nc3scc(-c4ccco4)c3c2=O)cc1 | - | - | - | CNCTC MY330/88 | MIC | 101 µM |
| O=c1oc2ccc(F)cc2c(=S)n1-c1cccc(F)c1 | - | 21 d | - | MY330/88 | MIC | 16 µM |
| Cc1ccc(C(=O)Nc2cnccn2)c(O)c1 | - | - | - | MY330/88 | MIC | 62.5 µM |
| O=c1oc2ccc([N+](=O)[O-])cc2c(=O)n1-c1ccc(Br)cc1 | - | - | - | CNCTC MY330/88 | MIC | 125 µM |
| NNC(=O)c1ccncc1 | - | - | - | 299 | MIC | 7.5 µg/mL |
| O=C(Oc1cc(Cl)ccc1C(=O)Nc1cccc(Br)c1)c1cnccn1 | - | 14 d | - | 330/88 | MIC | 8 µM |
| CN1CCN(Cc2ccccc2NC(=O)c2ccc(Cl)cc2)CC1 | - | - | - | 103317 | MIC | >16 µg/mL |
| N/C(=N\N=C\c1ccc(Cl)cc1)c1ccncc1 | - | - | - | Isoniazid/rifampicin/ofloxacin-resistant | MIC | 32 µg/mL |
| O=c1oc2ccc(Cl)cc2c(=S)n1-c1ccc(F)cc1 | - | 21 d | - | MY330/88 | MIC | 62.5 µM |
| Cc1ccc2c(=O)n(-c3ccc(Cl)c(Cl)c3)c(=O)oc2c1 | - | - | - | CNCTC MY330/88 | MIC | 8 µM |
| CC(=O)Nc1ccc(/C=N/NC(N)=S)cc1 | - | - | - | 1854 | MIC | 0.08 µg/mL |
| Cc1ccc(/C=N/N=C(\N)c2ccncc2)cc1 | - | - | - | Isoniazid/rifampicin/ofloxacin-resistant | MIC | 32 µg/mL |
| O=C(Nc1cccc([N+](=O)[O-])c1)c1cc(Br)ccc1O | - | - | - | CNCTC MY330/88 | MIC | 31 µM |
| O=C(Nc1cnccn1)c1ccc(Cl)cc1O | - | - | - | MY330/88 | MIC | 250 µM |
| CC[C@H]1OC(=O)[C@H](C)[C@@H](O[C@H]2C[C@@](C)(OC)[C@@H](O)[C@H](C)O2)[C@H](C)[C@@H](O[C@@H]2O[C@H](C)C[C@H](N(C)C)[C@H]2O)[C@](C)(O)C[C@@H](C)CN(C)[C@H](C)[C@@H](O)[C@]1(C)O | - | - | - | 15 isolates (HIV+) | EC50 | 25 µg/mL |
| Cc1nc2scc(-c3ccco3)c2c(=O)n1/N=C/c1ccc(Cl)cc1Cl | - | - | - | CNCTC MY330/88 | MIC | 4 µM |
| CO[C@H]1/C=C/O[C@@]2(C)Oc3c(C)c(O)c4c(O)c(cc(O)c4c3C2=O)NC(=O)/C(C)=C\C=C\[C@H](C)[C@H](O)[C@@H](C)[C@@H](O)[C@@H](C)[C@H](OC(C)=O)[C@@H]1C | - | - | - | Boreggi | MIC | 5 µg/mL |
| O=C(Nc1ccc(Cl)c(Cl)c1)c1ccc(Cl)cc1OS(=O)(=O)c1ccccc1 | - | 14 d | - | 330/88 | MIC | 62.5 µM |
| O=C(O)c1cn(C2CC2)c2c(Cl)c(N3C[C@@H]4CCCN[C@@H]4C3)c(F)cc2c1=O | - | - | - | 51 strains | MIC50 | 0.25 µg/mL |
| COc1ccc(NC(=O)c2cc(Cl)ccc2O)cc1 | - | - | - | CNCTC MY330/88 | MIC | 31 µM |
| O=C(Oc1ccc(Cl)cc1)c1cnccn1 | - | 21 d | - | 330/88 | MIC | >500 µM |
| CC1COc2c(N3CCN(C)CC3)c(F)cc3c(=O)c(C(=O)O)cn1c23 | - | - | - | ATCC 15769 | MIC90 | >100 µg/mL |
| CN1CCN(Cc2ccccc2NC(=O)c2ccc(-c3ccccc3)cc2)CC1 | - | - | - | 103317 | MIC | >16 µg/mL |
| CC(C)(C)n1cc(C(=O)O)c(=O)c2cc(F)c(N3CCNCC3)nc21 | - | - | - | 101 | MIC | 1 µg/mL |
| O=c1oc2ccc(Br)cc2c(=S)n1-c1cccc(Cl)c1 | - | 21 d | - | MY330/88 | MIC | 32 µM |
| COc1ccc2c(=O)n(-c3ccc(C(F)(F)F)cc3)c(=O)oc2c1 | - | - | - | CNCTC MY330/88 | MIC | 16 µM |
| O=C(Nc1ccc(Br)cc1)c1ccc(Br)cc1OS(=O)(=O)c1ccccc1 | - | 14 d | - | 330/88 | MIC | 8 µM |
| COc1ccc2oc(=O)n(-c3ccccc3)c(=S)c2c1 | - | 21 d | - | MY330/88 | MIC | 32 µM |
| O=C(NN=C1CCCCC1)c1ccncc1 | - | - | - | 101 | MIC90 | 0.08 µg/mL |
| COc1ccc2oc(=S)n(-c3ccc(C(F)(F)F)cc3)c(=S)c2c1 | - | 14 d | - | MY330/88 | MIC | 62.5 µM |
| Cc1cc(-c2cc3c(cc2F)c(=O)c(C(=O)O)cn3C2CC2)cc(C)n1 | Human monocyte-derived macrophages | - | agar | - | MIC | 1 µg/mL |
| O=C(Nc1cccc(F)c1)c1ccc(Cl)cc1OS(=O)(=O)c1ccccc1 | - | 14 d | - | 330/88 | MIC | 500 µM |
| Fc1ccc(-n2c(=S)oc3ccc(F)cc3c2=S)cc1 | - | 21 d | - | MY330/88 | MIC | 16 µM |
| O=C(Oc1ccc(Br)cc1C(=O)Nc1ccc(C(F)(F)F)cc1)c1cnccn1 | - | 14 d | - | 330/88 | MIC | 2 µM |
| Cc1nc2scc(-c3ccco3)c2c(=O)n1NC(=O)c1ccc(F)cc1 | - | - | - | CNCTC MY330/88 | MIC | 9 µM |
| CCOc1c(N2CCC(C(C)(C)N)C2)c(F)cc2c(=O)c(C(=O)O)cn(C3CC3)c12 | - | - | - | LR114R | MIC | 0.06 µg/mL |
| O=C(Nc1ccc(Cl)c(Cl)c1)c1ccccc1O | - | - | - | CNCTC MY330/88 | MIC | 31 µM |
| COC(=O)/C=C/C(=O)c1ccc(C(C)(C)C)cc1 | - | - | - | - | MIC | 16 µg/mL |
| Cc1nc2scc(-c3ccco3)c2c(=O)n1/N=C/c1ccc([N+](=O)[O-])cc1 | - | - | - | CNCTC MY330/88 | MIC | 7 µM |
| O=C(Nc1ccccc1)c1ccccc1O | - | - | - | CNCTC MY330/88 | MIC | 62.5 µM |
| COc1ccc2oc(=O)n(-c3ccc(F)cc3)c(=S)c2c1 | - | 21 d | - | MY330/88 | MIC | 62.5 µM |
| Cc1ccnc(NC(=O)c2ccc(Cl)cc2O)n1 | - | - | - | MY330/88 | MIC | 500 µM |
| CCc1cn2c(nc1=O)O[C@@H]1[C@H](F)[C@H]2O[C@@H]1CO | - | - | resazurin | ATCC 25291 | MIC50 | 100 µg/mL |
| OO | - | - | - | 485 | EC50 | >0.0005 µM |
| Cc1ccc(O)c(C(=O)Nc2ccc(C#N)cc2)c1 | - | - | - | CNCTC MY330/88 | MIC | 1000 µM |